Anti-infective test results gathered from many reports (values: NIAID ChemDB through PubChem).

Common to all: growth or infection tests; agent: Mycobacterium avium intracellulare; read-out: MIC

Blank or dashed fields: not listed here.

structure,strain,value
CC[C@H]1OC(=O)[C@H](C)[C@@H](O[C@H]2C[C@@](C)(OC)[C@@H](O)[C@H](C)O2)[C@H](C)[C@@H](O[C@@H]2O[C@H](C)C[C@H](N(C)C)[C@H]2O)[C@](C)(OC)C[C@@H](C)C(=O)[C@H](C)[C@@H](O)[C@]1(C)O,-,0.13 µg/mL
NC[C@H]1O[C@H](O[C@H]2[C@H](O)[C@@H](O[C@H]3O[C@H](CO)[C@@H](O)[C@H](N)[C@H]3O)[C@H](N)C[C@@H]2N)[C@H](O)[C@@H](O)[C@@H]1O,N-481 (HIV-),4 µg/mL
CCn1nc(C(=O)O)c(=O)c2cc3c(cc21)OCO3,-,486.3 µg/mL
CC1=CN=C2c3ccccc3C(=O)C3N=CC=C1C23,-,0.39 µg/mL
NCC[C@H](O)C(=O)N[C@@H]1C[C@H](N)[C@@H](O[C@H]2O[C@H](CN)[C@@H](O)[C@H](O)[C@H]2O)[C@H](O)[C@H]1O[C@H]1O[C@H](CO)[C@@H](O)[C@H](N)[C@H]1O,-,4 µg/mL
CO[C@H]1/C=C/O[C@@]2(C)Oc3c(C)c(O)c4c(O)c(c5c(c4c3C2=O)NC2(CCN(CC(C)C)CC2)N=5)=NC(=O)/C(C)=C\C=C\[C@H](C)[C@H](O)[C@@H](C)[C@@H](O)[C@@H](C)[C@H](OC(C)=O)[C@@H]1C,CDC1,0.075 µg/mL
CCn1cc(C(=O)O)c(=O)c2ccc(-c3ccncc3)cc21,-,68.8 µg/mL
CC[C@H]1OC(=O)[C@H](C)[C@@H](O[C@H]2C[C@@](C)(OC)[C@@H](O)[C@H](C)O2)[C@H](C)[C@@H](O[C@@H]2O[C@H](C)C[C@H](N(C)C)[C@H]2O)[C@](C)(OC)C[C@@H](C)C(=O)[C@H](C)[C@@H](O)[C@]1(C)O,ATCC 13950,2 µg/mL
NNC(=O)c1ccncc1,-,2 µg/mL
NC1CCN(c2c(F)cc3c(=O)c(C(=O)O)cn(C4CC4)c3c2Cl)C1,-,5 µg/mL
CO[C@H]1/C=C/O[C@@]2(C)Oc3c(C)c(O)c4c(O)c(c(/C=N/N5CCN(C)CC5)c(O)c4c3C2=O)NC(=O)/C(C)=C\C=C\[C@H](C)[C@H](O)[C@@H](C)[C@@H](O)[C@@H](C)[C@H](OC(C)=O)[C@@H]1C,CIPT 140310031,0.1 µg/mL
CN1CCN(c2c(F)cc3c(=O)c(C(=O)O)cn(CCF)c3c2F)CC1,-,4.7 µg/mL
CC1CN(c2cc3c(cc2F)c(=O)c(C(=O)O)cn3-c2ccc(F)cc2F)CCN1,ATCC 13950,4 µg/mL
CO[C@H]1/C=C/O[C@@]2(C)Oc3c(C)c(O)c4c(=O)c(c5oc6cc(N7CCN(CC(C)C)CC7)cc(=O)c6nc5c4c3=C2O)NC(=O)/C(C)=C\C=C\[C@H](C)[C@H](O)[C@@H](C)[C@@H](O)[C@@H](C)[C@H](OC(C)=O)[C@@H]1C,N-260,0.06 µg/mL
CC1CCc2cc(F)cc3c(=O)c(C(=O)O)cn1c23,-,>250 µg/mL

Neighbouring rows are from separate reports.